Source: article PMC11464777, “Approved drugs successfully repurposed against Leishmania based on machine learning predictions” (Frontiers in Cellular and Infection Microbiology, 2024)

Test system: L. major and L. infantum amastigotes
Assay: Anti-amastigote assay, stated across the three strains
Type: cell-based, Leishmania infantum, Leishmania major
Settings: CC50/IC50 amastigotes
Description: THP-1-derived macrophages (5 × 10^4/well) were seeded in each 8-well Labtek slides (Thermo Scientific). Adherent macrophages were obtained as described above, then infected with stationary phase promastigotes of each strain at a ratio 10:1 (10 parasites/macrophage) in RPMI medium containing penicillin (100 U/mL) and streptomycin (100 μg/mL) with 10% fetal bovine serum (Gibco, Brazil) at 37°C in 5% CO2 for 24 h. […] Non-infected control cells were incubated in a supplemented RPMI medium containing 1% DMSO. After 72h of incubation, cells were fixed and stained using May-Grunwald-Giemsa staining with RAL 555 Kit (RAL DIAGNOSTICS, France), following the manufacturer’s instructions. The percentage of infected cells and the total number of internalized parasites per 100 macrophages were determined under immersion oil (magnification of 1000X) using light microscopy. The percentage of amastigotes viability was expressed as the percentage of total number of internalized parasites within treated cells relative to the total number of internalized parasites within control cells treated with 1% DMSO, and calculated as follows:
Relative amastigote viability (%) = [(number of amastigotes/100 treated cells)/(number of amastigotes/100 treated cells with1% DMSO)] * 100
The relative percentage of amastigote viability was evaluated to calculate half inhibitory concentrations (IC50). […]

| Structure (SMILES) | Selectivity index (SI), span over strains |
| --- | --- |
| CCCC(=O)Nc1ccc(OCC(O)CNC(C)C)c(C(C)=O)c1 (centres unmarked) [Acebutolol] | moderate SI values |
| CCCNC(C)C(=O)Nc1ccccc1C (centres unmarked) [Prilocaine] | moderate SI values |
